Data on 1 compound can be found in publication PMC5584973, “Characterization of novel bangle lectin from Photorhabdus asymbiotica with dual sugar-binding specificity and its effect on host immunity” (PLoS Pathogens, 2017).

Experiment [1] concerns the target T1, PHL (Photorhabdus asymbiotica, UniProt C7BLE4). Put plainly: Glycan array screening of DyLight 488-labelled PHL. As to conditions: PHL 200 μg/ml. How it is done: Purified PHL lectin samples were labelled with DyLight 488 NHS Ester (Thermo Scientific) according to the manufacturer’s instructions and dialysed against PBS buffer (137 mM NaCl, 2.7 mM KCl, 8 mM Na2HPO4, 1.47 mM KH2PO4, pH 7.4). The labelled protein was used for glycan array screening following the manufacturer’s standard procedure (Semiotik, Moscow, Russia). To determine the lectin specificity, the screening of the printed glycan microarray chip (slide number 10085636, with ~400 mammalian glycans and ~200 bacterial polysaccharides, all in 6 replicates) was performed with a PHL concentration of 200 μg/ml in PBS buffer. The relative binding of PHL was calculated as an average fluorescence from six replicates of each saccharide present in the array.

Experiment [2] addresses T1, PHL. As to the kind of experiment: SPR binding of PHL to immobilized sugars. Particulars: read-out: apparent KD, immobilized sugar. The method, then: SPR experiments were performed in a BIAcore T200 instrument (GE Healthcare) at 25°C. The carboxymethyldextran surface of a CM5 (GE Healthcare, UK) sensor chip was activated with N-ethyl-N-(3-dimethylaminopropyl)carbodiimide/N-hydroxysuccinimide solution according to the manufacturer’s standard protocol using HBS buffer (10 mM HEPES, 150 mM NaCl, 0.05% Tween 20, pH 7.5). Streptavidin was immobilized into all four channels to a final response of 6,300–7,500 RU. Subsequently, the sensor surface was blocked with 1 M ethanolamine. Biotinylated α/β-D-mannoside, α/β-D-galactoside and α-L-fucoside were injected into three measuring channels (final response ~ 140 RU) and pure biotin in the blank channel at a flow rate of 5 μl/min. In the experimental setup, measurements were carried out simultaneously in all four measuring channels using buffer A (300 mM NaCl, 20 mM Tris/HCl, pH 7.5) supplemented with 0.05% Tween20 at a flow rate of 20 μl/min. The interaction of PHL with immobilized sugars was measured over the concentration range 200–0.16 μg/ml.
(In general: SPR reads the build-up and loss of mass on a sensor chip optically.)

With `C[C@@H]1O[C@@H](O)[C@@H](O)[C@H](O)[C@@H]1O`, the “relative binding / preference on glycan array” value on PHL [1] is given as “highest relative binding”. The Kd at PHL [2] is 1400 nM.
